Results from publication PMC11599015 (Viruses, 2024).

Key:
[1] = target: T1, recombinant circular RABV N10-RNA complex purified from insect cells (phosphorylated) (rabies virus (RABV), UniProt Q8JXF6 1-450, phosphoserine at 389 (about 7 out of 10 N molecules on average))
T1 sequence: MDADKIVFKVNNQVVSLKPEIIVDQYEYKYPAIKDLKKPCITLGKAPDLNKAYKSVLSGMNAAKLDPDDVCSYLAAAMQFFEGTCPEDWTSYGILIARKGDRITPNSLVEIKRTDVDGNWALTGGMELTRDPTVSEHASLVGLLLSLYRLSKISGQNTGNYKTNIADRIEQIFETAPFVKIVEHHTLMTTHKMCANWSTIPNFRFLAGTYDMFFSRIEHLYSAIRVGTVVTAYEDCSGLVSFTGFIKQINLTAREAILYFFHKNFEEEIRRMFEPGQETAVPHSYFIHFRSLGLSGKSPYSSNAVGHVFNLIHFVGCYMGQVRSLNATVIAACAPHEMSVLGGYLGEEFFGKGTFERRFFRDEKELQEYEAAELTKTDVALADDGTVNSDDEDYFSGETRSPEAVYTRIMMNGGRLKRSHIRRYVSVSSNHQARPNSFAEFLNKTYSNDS

[2] = target: dephosphorylated linear RABV nucleocapsids (treated with CIAP) (rabies virus (RABV), UniProt Q8JXF6 1-450, dephosphorylated with CIAP (5% of N molecules taken to remain phosphorylated)); assay: SPR

B1: full-length rabies virus (RABV) phosphoprotein P dimer (natural protein)
chain: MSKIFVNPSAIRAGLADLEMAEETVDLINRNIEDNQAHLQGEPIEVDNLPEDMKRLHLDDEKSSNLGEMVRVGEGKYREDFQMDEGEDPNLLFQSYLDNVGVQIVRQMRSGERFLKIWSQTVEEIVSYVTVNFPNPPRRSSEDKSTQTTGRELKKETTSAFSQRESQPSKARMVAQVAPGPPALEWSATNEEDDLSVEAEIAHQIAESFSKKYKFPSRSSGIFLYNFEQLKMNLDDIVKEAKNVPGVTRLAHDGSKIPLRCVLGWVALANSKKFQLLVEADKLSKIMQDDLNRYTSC
Ka (bimolecular step of the first CTD) [1]: 80 nM | Kd [1]: 5.5 nM | stoichiometry N [1]: 3.5 monomers of P bound per N10-RNA ring | Kd [2]: 1600 nM
